Among the data in paper PMC7494911, “Translational pharmacology of an inhaled small molecule αvβ6 integrin inhibitor for idiopathic pulmonary fibrosis” (Nature Communications, 2020) are inhibition of αvβ6-mediated TGFβ activation (pSmad2 levels in NHBE cells), IC50 and inhibition of αvβ6-mediated TGFβ activation (pSmad2 levels in NHBE cells), pIC50 values, retold here.

Protein sequences, listed by entry. Tags and fused reporters are not part of them. Residues count along the entry.
UniProt P06756, 31-1048, chain 1 of 2: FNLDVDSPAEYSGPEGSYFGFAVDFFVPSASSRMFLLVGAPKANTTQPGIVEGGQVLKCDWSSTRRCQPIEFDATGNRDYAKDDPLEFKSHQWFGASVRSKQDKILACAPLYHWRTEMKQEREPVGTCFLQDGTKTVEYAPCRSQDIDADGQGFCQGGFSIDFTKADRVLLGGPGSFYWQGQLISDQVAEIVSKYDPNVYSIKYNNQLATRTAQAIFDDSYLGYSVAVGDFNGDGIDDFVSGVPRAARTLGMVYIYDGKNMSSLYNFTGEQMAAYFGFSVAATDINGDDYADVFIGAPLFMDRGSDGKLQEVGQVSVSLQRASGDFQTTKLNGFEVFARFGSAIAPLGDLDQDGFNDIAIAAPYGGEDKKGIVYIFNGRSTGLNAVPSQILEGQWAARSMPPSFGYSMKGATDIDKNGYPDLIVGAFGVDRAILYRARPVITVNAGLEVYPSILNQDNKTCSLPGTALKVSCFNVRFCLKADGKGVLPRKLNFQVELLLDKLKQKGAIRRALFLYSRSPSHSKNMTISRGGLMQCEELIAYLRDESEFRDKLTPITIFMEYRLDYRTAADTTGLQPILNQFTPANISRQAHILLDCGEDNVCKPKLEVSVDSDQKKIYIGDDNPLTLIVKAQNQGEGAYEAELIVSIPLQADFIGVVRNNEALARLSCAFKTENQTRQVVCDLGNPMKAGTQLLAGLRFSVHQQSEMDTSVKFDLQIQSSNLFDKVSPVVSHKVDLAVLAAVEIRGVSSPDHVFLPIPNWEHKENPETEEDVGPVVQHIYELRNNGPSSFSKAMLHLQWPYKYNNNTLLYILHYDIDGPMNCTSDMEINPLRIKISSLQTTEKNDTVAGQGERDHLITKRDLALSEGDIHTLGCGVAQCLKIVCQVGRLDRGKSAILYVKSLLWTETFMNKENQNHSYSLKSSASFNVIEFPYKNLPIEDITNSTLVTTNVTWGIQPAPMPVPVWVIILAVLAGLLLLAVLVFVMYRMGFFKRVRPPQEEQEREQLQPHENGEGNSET

This test concerns the target αvβ6 integrin (human, on NHBE cells) (human (endogenous in NHBE cells)) (UniProt P06756).

For the substance A20FMDV2 (peptide), the inhibition of αvβ6-mediated TGFβ activation (pSmad2 levels in NHBE cells), IC50 is 3.5 nM and the inhibition of αvβ6-mediated TGFβ activation (pSmad2 levels in NHBE cells), pIC50 was determined as 8.25 pIC50.
